Sequence variants of PSTVd loop 6 after infection

From the data files of Wu et al. 2024, doi:10.1371/journal.ppat.1012142.

The pool varies loop 6 of the PSTVd intermediate strain in the pattern UNNNCGNNNG; wild type is UGACCGCGAG (upper and lower strand joined, each 5' to 3', the first 5 letters being the upper strand, closing pairs included).

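Three N. benthamiana plants were inoculated with the whole mutant pool. Samples came from the inoculated region at 5 days, the leaf margin at 10 and upper systemic leaves at 12.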

Values are reads per thousand in the sample; higher means more abundant, 0 means not found. Each site shows the three plants. "Pool" is the share in the plasmid pool used as inoculum, on the same scale. The inoculated region was read from the minus strand, the other sites from the plus strand.

{"sequence": "UUUACGGCCG", "pool": "0.196", "inoculated region": "0.643 / 0.647 / 0.572", "leaf margin": "0.0828 / 0 / 0", "systemic leaves": "0 / 0 / 0"}
{"sequence": "UUUACGGCGG", "pool": "0.314", "inoculated region": "0.104 / 0.198 / 0.129", "leaf margin": "0.0276 / 0 / 0", "systemic leaves": "0 / 0.0404 / 0"}
{"sequence": "UUUACGGCGU", "pool": "0.0131", "inoculated region": "0 / 0 / 0", "leaf margin": "0 / 0 / 0", "systemic leaves": "0 / 0 / 0"}
{"sequence": "UUUACGGCUG", "pool": "0.340", "inoculated region": "0.122 / 0.0539 / 0.166", "leaf margin": "0 / 0 / 0", "systemic leaves": "0 / 0 / 0"}
{"sequence": "UUUACGGGAG", "pool": "0.209", "inoculated region": "0.782 / 0.808 / 0.590", "leaf margin": "0.166 / 0.0757 / 0.0696", "systemic leaves": "0 / 0 / 0"}
{"sequence": "UUUACGGGCG", "pool": "0.144", "inoculated region": "0.695 / 0.701 / 0.443", "leaf margin": "0.138 / 0.101 / 0.0928", "systemic leaves": "0 / 0 / 0"}
{"sequence": "UUUACGGGGG", "pool": "0.0784", "inoculated region": "0.0695 / 0.126 / 0.0553", "leaf margin": "0.0276 / 0 / 0.0232", "systemic leaves": "0 / 0 / 0"}
{"sequence": "UUUACGGGUG", "pool": "0.209", "inoculated region": "0.191 / 0.162 / 0.0922", "leaf margin": "0.0276 / 0 / 0", "systemic leaves": "0 / 0 / 0"}
{"sequence": "UUUACGGUAG", "pool": "0.340", "inoculated region": "0.0869 / 0.144 / 0.111", "leaf margin": "0.0276 / 0 / 0", "systemic leaves": "0.0180 / 0.0808 / 0"}
{"sequence": "UUUACGGUCG", "pool": "0.105", "inoculated region": "0.104 / 0.126 / 0.129", "leaf margin": "0.0276 / 0 / 0.0232", "systemic leaves": "0 / 0 / 0"}
{"sequence": "UUUACGGUGG", "pool": "0.209", "inoculated region": "0.139 / 0.0539 / 0.0738", "leaf margin": "0 / 0 / 0", "systemic leaves": "0 / 0 / 0"}
{"sequence": "UUUACGGUUG", "pool": "0.209", "inoculated region": "0.139 / 0.0359 / 0.0922", "leaf margin": "0 / 0 / 0", "systemic leaves": "0 / 0 / 0"}
{"sequence": "UUUACGUAAG", "pool": "0.131", "inoculated region": "0.122 / 0.0898 / 0.129", "leaf margin": "0 / 0 / 0.0232", "systemic leaves": "0.0180 / 0.0404 / 0.0205"}
{"sequence": "UUUACGUACG", "pool": "0.235", "inoculated region": "0.104 / 0.0359 / 0.111", "leaf margin": "0 / 0 / 0", "systemic leaves": "0 / 0 / 0"}
{"sequence": "UUUACGUAGG", "pool": "0.379", "inoculated region": "0.122 / 0.0898 / 0.0553", "leaf margin": "0 / 0 / 0.0232", "systemic leaves": "0 / 0 / 0"}
{"sequence": "UUUACGUAUG", "pool": "0.275", "inoculated region": "0.139 / 0.0898 / 0.129", "leaf margin": "0.331 / 0 / 0.0232", "systemic leaves": "0 / 0 / 0"}
{"sequence": "UUUACGUCAG", "pool": "0.288", "inoculated region": "0.122 / 0.0359 / 0.0553", "leaf margin": "0.0276 / 0 / 0", "systemic leaves": "0 / 0 / 0"}
{"sequence": "UUUACGUCCG", "pool": "0.209", "inoculated region": "0.122 / 0.0898 / 0.0553", "leaf margin": "0 / 0 / 0", "systemic leaves": "0 / 0 / 0"}
{"sequence": "UUUACGUCGG", "pool": "0.222", "inoculated region": "0.0695 / 0.0719 / 0.129", "leaf margin": "0 / 0 / 0", "systemic leaves": "0 / 0 / 0"}
{"sequence": "UUUACGUCUG", "pool": "0.275", "inoculated region": "0.139 / 0.0898 / 0.0922", "leaf margin": "0.0276 / 0 / 0", "systemic leaves": "0 / 0 / 0"}
{"sequence": "UUUACGUGAG", "pool": "0.118", "inoculated region": "0.851 / 0.754 / 0.516", "leaf margin": "0.138 / 0.0504 / 0.0464", "systemic leaves": "0 / 0 / 0"}
{"sequence": "UUUACGUGCG", "pool": "0.327", "inoculated region": "0.0695 / 0.0719 / 0.0553", "leaf margin": "0.0276 / 0 / 0", "systemic leaves": "0 / 0 / 0"}
{"sequence": "UUUACGUGGG", "pool": "0.157", "inoculated region": "0.104 / 0.180 / 0.0553", "leaf margin": "0 / 0 / 0", "systemic leaves": "0 / 0 / 0"}
{"sequence": "UUUACGUGUG", "pool": "0.275", "inoculated region": "0.0869 / 0.0898 / 0.0738", "leaf margin": "0 / 0 / 0.0232", "systemic leaves": "0 / 0 / 0"}
{"sequence": "UUUACGUUAG", "pool": "0.235", "inoculated region": "0.139 / 0.126 / 0.166", "leaf margin": "0 / 0 / 0.0464", "systemic leaves": "0 / 0 / 0"}
{"sequence": "UUUACGUUCG", "pool": "0.248", "inoculated region": "0.104 / 0.0719 / 0.129", "leaf margin": "0.0276 / 0 / 0", "systemic leaves": "0 / 0 / 0"}
{"sequence": "UUUACGUUGG", "pool": "0.248", "inoculated region": "0.174 / 0.0539 / 0.0738", "leaf margin": "0 / 0 / 0", "systemic leaves": "0 / 0 / 0"}
{"sequence": "UUUACGUUUG", "pool": "0.275", "inoculated region": "0.0869 / 0.0719 / 0.111", "leaf margin": "0 / 0 / 0", "systemic leaves": "0 / 0 / 0"}
{"sequence": "UUUACUGUCC", "pool": "0.0131", "inoculated region": "0 / 0 / 0", "leaf margin": "0 / 0 / 0", "systemic leaves": "0 / 0.0202 / 0"}
{"sequence": "UUUCCGAAAG", "pool": "0.157", "inoculated region": "0.104 / 0.108 / 0.0922", "leaf margin": "0.0276 / 0 / 0", "systemic leaves": "0 / 0 / 0"}

A selection of 2 entries from above:

UUUACUGUCC (pool 0.0131) gave inoculated region 0 / 0 / 0; leaf margin 0 / 0 / 0; systemic leaves 0 / 0.0202 / 0.
UUUACGUAGG (pool 0.379) gave inoculated region 0.122 / 0.0898 / 0.0553; leaf margin 0 / 0 / 0.0232; systemic leaves 0 / 0 / 0.

The authors trace changes outside the varied positions to PCR and sequencing errors or to mutation in the plant; presence does not show that a variant is infectious alone. With 36,220-57,551 reads a sample, very low values are single reads. Wild type was 20.7 per thousand in the pool and the most common sequence in every sample (inoculated region 195, 198, 203; leaf margin 629, 591, 734; systemic leaves 942, 870, 868).